A mixed list of measured activities; the numbers were collected in NIAID ChemDB.

Common to all: whole-cell or culture tests; species: Herpes simplex virus 2; method: plaque count; endpoint: EC50

Neighbouring rows are from separate reports.

structure | cell line | strain | value
Nc1ccn([C@H]2O[C@@H](CO)[C@H](O)[C@H]2F)c(=O)n1 | VERO | G-FAU-C2 | 1.4 µM
CCCCCCCCCCCCCCCCCC(=O)OCC(CO[C@@H]1O[C@H](CO)[C@@H](O)[C@H](O)[C@H]1O)OC(=O)CCCCCCCCCCC | VERO | 186 | >50 µg/mL
C/C=C/c1cn([C@H]2C[C@H](O)[C@@H](CO)O2)c(=O)[nH]c1=O | HELA BU | 333 | <10 µM
CC(=O)OC[C@H]1O[C@H](OC(=O)NS(=O)(=O)OC[C@H]2O[C@@H](n3ccc(=O)[nH]c3=O)[C@H](OC(C)C)[C@@H]2OC(C)C)[C@H](OC(C)=O)[C@@H](OC(C)=O)[C@@H]1OC(C)=O | VERO | Lovelace | >100 µg/mL
Nc1ncnc2c1ncn2OCC(CO)OCP(=O)(O)O | MRC-5 | MS | >310 µg/mL
CCCCCCCCCCCCCCCCCCCCCC(=O)OCC(CO[C@@H]1O[C@H](CO)[C@H](O)[C@H](O)[C@H]1O)OC(=O)CCCCCCCCCCCCC | VERO | 186 | >50 µg/mL
Nc1ccn(C[C@@H](CO)OCP(=O)(O)O)c(=O)n1 | HFF | Jensen | 2.1 µg/mL
CCCCC/C=C\C/C=C\CCCCCCCC(=O)OCC(CO[C@@H]1O[C@H](CO)[C@@H](O)[C@H](O)[C@H]1O)OC(=O)CCCCCCC/C=C\C/C=C\CCCCC | VERO | 186 | 50 µg/mL
CS/C=C/C(=O)NCCCCNC(=O)/C=C/SC | - | - | >20 µg/mL
O=C(NCc1ccc(Cl)cc1)c1c[nH]c2c(F)cccc2c1=O | - | MS | 26 µM
CC(C)=CCC[C@@H](COS(=O)(=O)O)C1CCC2C3CC[C@H]4C[C@H](OS(=O)(=O)O)[C@@H](O)CC4(C)C3CCC21C | VERO | G | 24.3 µg/mL
O=c1[nH]c(=O)n([C@@H]2O[C@H](CO)[C@@H](O)[C@@H]2F)cc1I | VERO | G-FMAU-C1 | 13 µM
Nc1nc2c(ncn2CCCCO)c(=O)[nH]1 | HEL | 91075 | 6 µM
CC(C)(C)[Si](C)(C)OC[C@H]1O[C@@H](n2ccc(=O)[nH]c2=O)[C@H](O[Si](C)(C)C(C)(C)C)C1(O)[C@H](N=[N+]=[N-])C(N)=O | VERO | - | >3.6 µM
O=C(NS(=O)(=O)OC[C@H]1O[C@@H](n2ccc(=O)[nH]c2=O)[C@H](O)[C@@H]1O)O[C@H]1O[C@H](COC(=O)c2ccccc2)[C@@H](OC(=O)c2ccccc2)[C@H](OC(=O)c2ccccc2)[C@H]1OC(=O)c1ccccc1 | VERO | Lovelace | 26 µg/mL
COc1nc(N)nc2c1ncn2/C=C1/C[C@@H]1CO | HFF | - | 73 µM
O=C(O)CP(=O)(O)O | MEF | E-326 | 12.9 µg/mL
O=C(NCc1ccc(Cl)cc1)c1cn2c3c(cc(CN4CCOCC4)cc3c1=O)OC(c1cccnc1)C2 | HFF | 13078 (ACV-resistant) | 5.5 µM
Nc1ccn(C[C@@H](CO)OCP(=O)(O)O)c(=O)n1 | HEL | G | 0.4 µM
O=C(OC[C@H]1O[C@@H](OC(=O)c2cc(O)c(O)c(O)c2)[C@H](O)[C@@H](OC(=O)c2cc(O)c(O)c(O)c2)[C@@H]1O)c1cc(O)c(O)c(O)c1 | VERO | G | 0.041 µg/mL
COc1cc(/C=N/N=C(/N)NO)cc(OC)c1OC.Cc1ccc(S(=O)(=O)O)cc1 | VERO | G | >50 µM
CC#Cc1cn([C@@H]2O[C@H](COP(=O)(O)Oc3ccc(OC)cc3)[C@@H](O)[C@@H]2O)c(=O)[nH]c1=O | VERO | SC16 | >100 µM
CC(=O)O[C@H]1C[C@H](n2cc(C)c(=O)[nH]c2=O)O[C@@H]1COS(=O)(=O)NC(=O)O[C@H]1O[C@H](COC(=O)c2ccccc2)[C@@H](OC(=O)c2ccccc2)[C@H](OC(=O)c2ccccc2)[C@H]1OC(=O)c1ccccc1 | VERO | Lovelace | 25 µg/mL
Cn1cc(C(=O)NCc2ccc(Cl)cc2)c(=O)c2cc(CN3CCOCC3)ccc21 | HFF | X-79 (WILD TYPE) | 4.7 µM
COc1ccc(/C=N/N=C(\N)NO)cc1.Cc1ccc(S(=O)(=O)O)cc1 | VERO | G | >50 µM
O=c1ccn([C@@H]2O[C@H](CO)[C@@H](O)[C@@H]2F)c(=O)[nH]1 | VERO | G-FAU-C2 | >200 µM
CC1(C)C=C2[C@H]3CC[C@@H]4[C@@]5(C)CCC(=O)C(C)(C)[C@@H]5CC[C@@]4(C)[C@]3(C)CC[C@@]2(C(=O)O)CC1 | VERO | ITO-1262 | 5.8 µg/mL
Nc1ccn(C[C@@H](CO)OCP(=O)(O)O)c(=O)n1 | MRC-5 | 8708 (TK altered) | 0.4 µM
Nc1nc2c(ncn2CC[C@@H](O)CO)c(=O)[nH]1 | VERO | 91075 | 4 µM
Cc1cn([C@@H]2O[C@H](CO[Si](C)(C)C(C)(C)C)C3(O[C@H]3C(=O)NO)[C@H]2O[Si](C)(C)C(C)(C)C)c(=O)[nH]c1=O | VERO | - | >3 µM
CCCCCCCCCCCCCCCCCC(=O)OCC(CO[C@@H]1O[C@H](CO)[C@@H](O)[C@H](O)[C@H]1O)OC(=O)CCCCCCCCCCCCCCCCC | VERO | 186 | >50 µg/mL
CC#Cc1cn([C@@H]2O[C@H](COP(=O)(O)Oc3ccccc3Cl)[C@@H](O)[C@@H]2O)c(=O)[nH]c1=O | VERO | SC16 | >100 µM
Nc1nc2c(ncn2COCCO)c(=O)[nH]1 | HELF | UW-268 | 0.051 µg/mL
CC(=O)OC[C@H]1O[C@@H](OC(=O)NS(=O)(=O)OC[C@H]2O[C@@H](n3ccc(=O)[nH]c3=O)[C@H](OC(C)C)[C@@H]2OC(C)C)[C@@H](OC(C)=O)[C@@H](OC(C)=O)[C@@H]1OC(C)=O | VERO | Lovelace | >100 µg/mL
CC#Cc1cn([C@@H]2O[C@H](COP(=O)(O)OCCCCCCCCCCCC)[C@@H](O)[C@@H]2O)c(=O)[nH]c1=O | VERO | SC16 | >100 µM
O=C(NCc1ccc(Cl)cc1)c1cn(N2CCOCC2)c2ccc(CN3CCOCC3)cc2c1=O | HFF | MS | 2.5 µM
NC1=NC2C(C=CN2CC(CO)CCO)C(=O)N1 | VERO | G | 1.7 µM
O=c1[nH]c(=O)n([C@H]2C[C@H](O)[C@@H](CO)O2)cc1/C=C/Br | HELA BU | 333 | <10 µM
Cc1cn([C@@H]2O[C@H](CO[Si](C)(C)C(C)(C)C)C3(O[C@H]3C(N)=O)[C@H]2O[Si](C)(C)C(C)(C)C)c(=O)[nH]c1=O | VERO | - | >2.7 µM
CC(C)O[C@@H]1[C@H](OC(C)C)[C@@H](COS(=O)(=O)NC(=O)O[C@H]2O[C@H](COC(=O)c3ccccc3)[C@@H](OC(=O)c3ccccc3)[C@H](OC(=O)c3ccccc3)[C@H]2OC(=O)c2ccccc2)O[C@H]1n1ccc(=O)[nH]c1=O | VERO | Lovelace | 30 µg/mL
O=c1[nH]cnc2c1ncn2OCCOCP(=O)(O)O | MRC-5 | MS | >340 µM
CC(C)(C)[Si](C)(C)OC[C@H]1O[C@@H](n2ccc(=O)[nH]c2=O)[C@H](O[Si](C)(C)C(C)(C)C)[C@@]12O[C@H]2C(=O)NO | VERO | - | 3 µM
Nc1nc(=O)n([C@@H]2O[C@H](CO)[C@@H](O)[C@@H]2F)cc1I | VERO | G | 0.03 µM
CC#Cc1cn([C@@H]2O[C@H](COP(=O)(O)Oc3ccc(F)cc3)[C@@H](O)[C@@H]2O)c(=O)[nH]c1=O | VERO | SC16 | >100 µM
COC(=O)/C=C1/[C@@H](O[Si](C)(C)C(C)(C)C)[C@H](n2cc(C)c(=O)[nH]c2=O)O[C@@H]1CO[Si](C)(C)C(C)(C)C | VERO | - | >35 µM
Nc1ncnc2c1ncn2[C@H]1C[C@@]12C[C@@H]2CO | VERO | - | >50 µM
Nc1nc2c(ncn2/C=C2\CC2(CO)CO)c(=O)[nH]1 | HFF | MS | >380 µM
CC(C)O[C@@H]1[C@H](OC(C)C)[C@@H](COS(=O)(=O)NC(=O)O[C@H]2O[C@H](COCc3ccccc3)[C@@H](OCc3ccccc3)[C@H](OCc3ccccc3)[C@H]2OCc2ccccc2)O[C@H]1n1ccc(=O)[nH]c1=O | VERO | Lovelace | 10 µg/mL
CC(=O)O[C@H]1CC2=CCC3C(CCC4(C)C(C(CCC=C(C)C)COS(=O)(=O)O)CCC34)C2(C)C[C@@H]1OS(=O)(=O)O | VERO | TYPE G | 22.4 µg/mL
Cc1cc(O)c2c(=O)c3cccc(Cl)c3[nH]c2c1 | VERO | 186 | >50 µM
O=C(NS(=O)(=O)OC[C@H]1O[C@@H](n2ccc(=O)[nH]c2=O)[C@H](O)[C@@H]1O)O[C@H]1O[C@H](COC(=O)c2ccccc2)[C@@H](OC(=O)c2ccccc2)[C@H](OC(=O)c2ccccc2)[C@@H]1OC(=O)c1ccccc1 | VERO | Lovelace | >200 µg/mL
O=c1[nH]c(=O)n([C@@H]2O[C@H](COP(=O)(O)O)[C@@H](O)[C@@H]2O)cc1/C=C/Br | HELF | MS | 15 µg/mL
O=c1[nH]c(=O)n(C[C@]2(CO)C[C@H]2CO)cc1/C=C/Br | MRC-5 | 186 | 0.12 µg/mL
CCCCCCCCCCCCCCCCCCCCCC(=O)OCC(CO[C@@H]1O[C@H](CO)[C@@H](O)[C@H](O)[C@H]1O)OC(=O)CCCCCCCCCCCCCCCCCCCCC | VERO | 186 | >50 µg/mL
O=c1[nH]c(=O)n([C@@H]2O[C@H](CO)[C@@H](O)[C@@H]2O)cc1/C=C/I | HELF | MS | 4.3 µg/mL
O=C(NS(=O)(=O)OCCOCn1ccc(=O)[nH]c1=O)O[C@H]1O[C@H](COCc2ccccc2)[C@@H](OCc2ccccc2)[C@H](OCc2ccccc2)[C@H]1OCc1ccccc1 | VERO | Lovelace | 25 µg/mL
CC/C=C/C/C=C/C/C=C/CCCCCCCC(=O)OC[C@H](CO[C@@H]1O[C@H](CO)[C@@H](O)[C@H](O)[C@H]1O)OC(=O)CCCCCCC/C=C/C/C=C/C/C=C/CC | VERO | 186 | 18.5 µg/mL
Nc1nc2c(ncn2COCCO)c(=O)[nH]1 | VERO | 196 | 0.4 µM
CC(C)(C)[Si](C)(C)O[C@H]1[C@H](n2ccc(=O)[nH]c2=O)O[C@H](CO)C1(O)C(N=[N+]=[N-])C(N)=O | VERO | - | >100 µM
Nc1nc2c(ncn2[C@@H]2C[C@H](CO)[C@H]2CO)c(=O)[nH]1 | WI-38 | 186 | 0.04 µM
CC(=O)N[C@H]1[C@@H](OC(=O)NS(=O)(=O)OC[C@H]2O[C@@H](n3ccc(=O)[nH]c3=O)[C@H](OC(C)C)[C@@H]2OC(C)C)O[C@H](COC(=O)c2ccccc2)[C@@H](OC(=O)c2ccccc2)[C@@H]1OC(=O)c1ccccc1 | VERO | Lovelace | >100 µg/mL
CC(C)=CCCC(COS(=O)(=O)O)C1CCC2C3CC=C4C[C@H](O)[C@@H](OS(=O)(=O)O)CC4(C)C3CCC12C | VERO | G | 51.5 µg/mL

A second listing of 4 rows from above:

structure,cell line,strain,value
Nc1ccn([C@H]2O[C@@H](CO)[C@H](O)[C@H]2F)c(=O)n1,VERO,G-FAU-C2,1.4 µM
O=C(OC[C@H]1O[C@@H](OC(=O)c2cc(O)c(O)c(O)c2)[C@H](O)[C@@H](OC(=O)c2cc(O)c(O)c(O)c2)[C@@H]1O)c1cc(O)c(O)c(O)c1,VERO,G,0.041 µg/mL
CCCCC/C=C\C/C=C\CCCCCCCC(=O)OCC(CO[C@@H]1O[C@H](CO)[C@@H](O)[C@H](O)[C@H]1O)OC(=O)CCCCCCC/C=C\C/C=C\CCCCC,VERO,186,50 µg/mL
O=C(NS(=O)(=O)OC[C@H]1O[C@@H](n2ccc(=O)[nH]c2=O)[C@H](O)[C@@H]1O)O[C@H]1O[C@H](COC(=O)c2ccccc2)[C@@H](OC(=O)c2ccccc2)[C@H](OC(=O)c2ccccc2)[C@@H]1OC(=O)c1ccccc1,VERO,Lovelace,>200 µg/mL

ECn: concentration that inhibits the pathogen or its effect by n%. Blank or dashed fields: not listed here.